# In article PMC3731144 (Proteins, 2012):
# What was measured:
# Test in all cases: SPR
# [1] = target: gp120YU2 M475A (HIV-1 strain YU2)
# [2] = target: gp120YU2 T257A (HIV-1 strain YU2)
# [3] = target: gp120YU2 R476A (HIV-1 strain YU2)
# [4] = target: gp120YU2 M95A (HIV-1 strain YU2)
# [5] = target: gp120YU2 E370A (HIV-1 strain YU2)
substance,measurement,setting,value
Hexahis-tagged 4-domain soluble CD4 (receptor),Kd,[1],28 nM
same,Kd,[2],72 nM
same,Kd,[3],28 nM
same,Kd,[4],17 nM
same,Kd,[5],25 nM
